Results of unrelated studies side by side (data: NIAID ChemDB).

All rows: whole-cell or culture tests; species: HIV-1; read-out: EC50

Conditions beyond the fields shown may differ between rows.

smiles | read by | strain or isolate | mutations | cells | value
CC(C)C1=C2[C@H]3CC[C@@H]4[C@@]5(C)CC[C@H](OC(=O)[C@H]6C[C@@H](C(=O)O)C6(C)C)C(C)(C)[C@@H]5CC[C@@]4(C)[C@]3(C)CC[C@@]2(CC(=O)NCc2ccc(Cl)cc2O[C@@H]2CCOC2)CC1=O | p24 / ELISA | 92HT599 | - | MT-2 | <1 µM
CC(C)=CCOc1cc(NC(=S)c2ccoc2C)ccc1Cl | cytopathic effect / XTT | UC040-R (RT-Y181C) | RT-Y181C | CEM + CEM-SS | 1 µM
O=C(COc1ccc(Cl)cc1C(=O)c1ccco1)Nc1ccc2cn[nH]c2c1 | cytopathic effect / propidium iodide | IIIB | - | MT-4 | <0.01 µM
CC(C)CN(CC(O)Cc1nccn1S(=O)(=O)c1ccccc1)S(=O)(=O)c1ccccc1 | p24 | IIIB | - | CEM | <1 µM
Cc1cc(OCCOc2ncc(-c3cnc(C)c([C@H](OC(C)(C)C)C(=O)O)c3N3CCC(C)(C)CC3)cc2F)ccc1F | luminescence | NL4-3 | - | MT-2 | 0.003 µM
Cc1o[nH]c(=O)c1C(=O)NC(C)(C)CNC(=O)C[C@@]12CC[C@]3(C)[C@H](CC[C@@H]4[C@@]5(C)CC[C@H](OC(=O)[C@H]6C[C@@H](C(=O)O)C6(C)C)C(C)(C)[C@@H]5CC[C@]43C)C1=C(C(C)C)C(=O)C2 | p24 / ELISA | 92HT599 | - | MT-2 | <1 µM
COc1ccc(S(=O)(=O)N(CC2CCCC2)C[C@@H](O)CN(CCc2ccccc2)C(=O)c2ccccc2)cc1 | p24 | IIIB | - | CEM | <0.1 µM
CC(C)=CCOc1cc(NC(=S)c2ccsc2C)ccc1Cl | cytopathic effect / XTT | IIIB | - | U-937 | 0.005 µM
CC(C)CN(CC(O)CCN(CC1CCCC1)S(=O)(=O)c1ccc(O)cc1)S(=O)(=O)c1ccccc1 | p24 | IIIB | - | CEM | <1 µM
CCC(=O)c1ccc(F)c([C@@H]2C[C@@H]2NC(=O)Nc2ccc(C#N)cn2)c1O | β-galactosidase / luminescence | LAI | NNRTI-resistant (RT K101E/Y181C) | TZM-bl | 0.0355 µM
CC(C)C1=C2[C@H]3CC[C@@H]4[C@@]5(C)CC[C@H](OC(=O)[C@H]6C[C@@H](C(=O)O)C6(C)C)C(C)(C)[C@@H]5CC[C@@]4(C)[C@]3(C)CC[C@@]2(CC(=O)NCC(C)(C)NC(=O)CN2CCS(=O)(=O)CC2)CC1=O | p24 / ELISA | 92HT599 | - | MT-2 | <1 µM
Cc1cc(Cl)ccc1OCCOc1ncc(-c2cnc(C)c([C@H](OC(C)(C)C)C(=O)O)c2N2CCC(C)(C)CC2)cc1F | luminescence | NL4-3 | - | MT-2 | 0.003 µM
CC1(C)CC=C(c2cn(-c3nccc(C(=O)NC4CCC(N5CC6CCC(C5)O6)CC4)n3)c3ccc(F)c([C@H](OC(C)(C)C)C(=O)O)c23)CC1 | luminescence | NL4-3 | T124A | MT-4 | 0.0026 µM
Cc1cc(C#N)cc(C(=O)c2cc(Cl)ccc2OCC(=O)Nc2ccc(OCCCN3CC=CC3)cc2C)c1 | β-galactosidase | HXB2 | RT-Y181C | HeLa + HELA CD4+ | <0.01 µM
O=C(c1ccccc1)N(CCc1ccccc1)C[C@H](O)CN(CC1CCCC1)S(=O)(=O)C1CCCOC1 | p24 | IIIB | - | CEM | <1 µM
COc1ccccc1C(=O)Nc1ccc(Cl)c(C(=O)OC(C)C)c1 | cytopathic effect / XTT | UC10-resistant (RT Y181C K101E) | RT-Y181C K101E | CEM + CEM-SS | >28 µM
Cc1cc(S(N)(=O)=O)ccc1NC(=O)COc1ccc(Cl)cc1C(=O)c1cc(F)cc(F)c1 | β-galactosidase | HXB2 | RT-Y188C | HeLa + HELA CD4+ | <0.01 µM
CCCc1cc(=O)oc2c3c(c4c(c12)OC(C)(C)CC4)O[C@@H](C)[C@H](C)[C@@H]3O | XTT | E BPTU-resistant (RT Y181C) | RT-Y181C | CEM + CEM-SS | <0.06 µM
Cc1ncc(-c2cnc(OCCN3CCOCC3)c(F)c2)c(N2CCC(C)(C)CC2)c1[C@H](OC(C)(C)C)C(=O)O | luminescence | NL4-3 | - | MT-2 | 0.0027 µM
Cc1cc(OCCCS(N)(=O)=O)ccc1NC(=O)COc1ccc(Cl)cc1C(=O)c1cc(F)cc(C(F)(F)F)c1 | β-galactosidase | HXB2 | RT-Y188C | HeLa + HELA CD4+ | <0.01 µM
CC(C)C1=C2[C@H]3CC[C@@H]4[C@@]5(C)CC[C@H](OC(=O)[C@H]6C[C@@H](C(=O)O)C6(C)C)C(C)(C)[C@@H]5CC[C@@]4(C)[C@]3(C)CC[C@@]2([C@@H](O)CNC(=O)C(CN)NC(=O)c2ccc(Cl)cc2)CC1=O | p24 / ELISA | 92HT599 | - | MT-2 | <1 µM
CCOCCCCOc1ccc(-c2cnc(C)c([C@H](OC(C)(C)C)C(=O)O)c2N2CCC(C)(C)CC2)nc1 | luminescence | NL4-3 | - | MT-2 | 0.0007 µM
CC(C)C1=C2[C@H]3CC[C@@H]4[C@@]5(C)CC[C@H](OC(=O)[C@H]6C[C@@H](C(=O)O)C6(C)C)C(C)(C)[C@@H]5CC[C@@]4(C)[C@]3(C)CC[C@@]2(CCNCc2ccc(N)nc2)CC1=O | p24 / ELISA | 92HT599 | - | MT-2 | <1 µM
Cc1ncc(-c2ccc(OCCOc3ccccc3F)cn2)c(N2CCC(C)(C)CC2)c1[C@H](OC(C)(C)C)C(=O)O | luminescence | NL4-3 | - | MT-2 | 0.0006 µM
Cc1nc2ccccc2c(-c2cc(F)c3c(c2C)CCCO3)c1[C@H](OC(C)(C)C)C(=O)O | luminescence | NL4-3 | Q148H | MT-4 | 0.015 µM
Cc1cc(S(N)(=O)=O)ccc1NC(=O)COc1ccc(Cl)cc1C(=O)c1cc(F)cc(C(F)(F)F)c1 | β-galactosidase | HXB2 | RT-K103N V108I | HeLa + HELA CD4+ | <0.01 µM
O=C(c1ccccc1)N(CCc1ccccc1)C[C@H](O)CN(CC1CCCC1)S(=O)(=O)Cc1cccc2n[nH]nc12 | p24 | IIIB | - | CEM | <1 µM
Cc1ncc(-c2ccc(OCCOc3ccccc3)cc2)c(N2CCC(C)(C)CC2)c1[C@H](OC(C)(C)C)C(=O)O | luminescence | NL4-3 | - | MT-2 | 0.0033 µM
Cc1cc(S(N)(=O)=O)ccc1NC(=O)COc1ccc(Cl)cc1C(=O)c1cc(Cl)cc(C#N)c1 | β-galactosidase | HXB2 | RT-Y181C | HeLa + HELA CD4+ | <0.01 µM
Cc1ncc(-c2ccc(OCCOc3cccc(C(=O)O)c3)cn2)c(N2CCC(C)(C)CC2)c1[C@H](OC(C)(C)C)C(=O)O | luminescence | NL4-3 | - | MT-2 | 0.1202 µM
Cc1cc(C)cc(C(=O)c2cc(Cl)ccc2OCC(=O)Nc2ccc(S(N)(=O)=O)cc2C)c1 | β-galactosidase | HXB2 | RT-L100I | HeLa + HELA CD4+ | <0.01 µM
CC(C)C1=C2[C@H]3CC[C@@H]4[C@@]5(C)CC[C@H](OC(=O)[C@H]6C[C@@H](C(=O)O)C6(C)C)C(C)(C)[C@@H]5CC[C@@]4(C)[C@]3(C)CC[C@@]2([C@@H](O)CNCc2ccc(Cl)cc2OCCN2CCS(=O)(=O)CC2)CC1=O | p24 / ELISA | 92HT599 | - | MT-2 | <1 µM
COc1ccc(S(=O)(=O)N(CC(C)C)C[C@@H](O)CCN(CCC2CCCC2)C(=O)O[C@H]2CCOC2)cc1 | p24 | IIIB | - | CEM | <1 µM

Again, the opening 4 rows:

smiles,read by,strain or isolate,mutations,cells,value
CC(C)C1=C2[C@H]3CC[C@@H]4[C@@]5(C)CC[C@H](OC(=O)[C@H]6C[C@@H](C(=O)O)C6(C)C)C(C)(C)[C@@H]5CC[C@@]4(C)[C@]3(C)CC[C@@]2(CC(=O)NCc2ccc(Cl)cc2O[C@@H]2CCOC2)CC1=O,p24 / ELISA,92HT599,-,MT-2,<1 µM
CC(C)=CCOc1cc(NC(=S)c2ccoc2C)ccc1Cl,cytopathic effect / XTT,UC040-R (RT-Y181C),RT-Y181C,CEM + CEM-SS,1 µM
O=C(COc1ccc(Cl)cc1C(=O)c1ccco1)Nc1ccc2cn[nH]c2c1,cytopathic effect / propidium iodide,IIIB,-,MT-4,<0.01 µM
CC(C)CN(CC(O)Cc1nccn1S(=O)(=O)c1ccccc1)S(=O)(=O)c1ccccc1,p24,IIIB,-,CEM,<1 µM

ECn is the concentration giving n% inhibition of infection, replication or growth. An empty or dashed field is not shown.